Test results: patent US9315482B2, “Derivatives useful as antiviral agents” (priority 2010, dated 2016)

Tested on: chikungunya virus (CHIKV)
Assay: Inhibition of chikungunya virus (CHIKV) in HEK-293T cells, glycoprotein E2 immunostaining
Details: for in vitro replication of the chikungunya virus (CHIKV) (anti-E2 immunostaining): Example 35, HEK-293T cells pre-treated, infected 3 hours later, MOI=1, 24 hours, FIG. 9; for in vitro replication of CHIKV (glycoprotein E2 expression by immunostaining): HEK-293T cells, M.O.I.=0.1, compounds at 2.5 μg/ml, FIG. 1

SMILES | in vitro replication of the chikungunya virus (CHIKV) (anti-E2 immunostaining) | in vitro replication of CHIKV (glycoprotein E2 expression by immunostaining)
C=Cc1cccc(-c2coc3c2C(=O)CCC3)c1 [GAC50, 3-(3-ethenylphenyl)-6,7-dihydro-5H-benzofuran-4-one] | blocked | 
O=C1CCCc2occ(-c3cccc(Cl)c3)c21 [Example 129-G03, 3-(3-chlorophenyl)-6,7-dihydro-5H-benzofuran-4-one] | blocked | blocked
O=c1oc2ccccc2c2c1C(c1c[nH]c3ccccc13)C([N+](=O)[O-])O2 (stereo not shown) [Example 123-G05, 3-(1H-Indol-3-yl)-2-nitro-2,3-dihydrofuro[3,2-c]chromen-4-one] |  | blocked
